Laboratory results published in PMC11546692 (International Journal of Molecular Sciences, 2024).

How the values were obtained:
[1] = tested on: MiaPaCa-2 human pancreatic cancer cells xenograft; experiment: Subcutaneous MiaPaCa-2 xenograft tumor growth in Scid mice; assay type: in vivo
Skp2 = Skp2 immunohistochemical staining of xenografted tumors; assay type: in vivo, Scid mice
[2] = GFAAS arsenic distribution in mouse tissue; details: PAO 50 μg/kg + Gem 50 mg/kg treated mice
MiaPaCa-2 cells = experiment: MTT assay with or without macropinocytosis inhibitor amiloride; details: MiaPaCa-2, 24 h

O=[As]c1ccccc1 (centres unmarked)
pancreatic tumor growth (tumor volume, tumor weight) ([1]; 50 μg/kg i.p. every other day, vs saline control): significantly suppressed pancreatic tumor growth
further reduction in tumor volumes and weight on top of Gem ([1]; PAO 50 μg/kg i.p. every other day plus Gem 50 mg/kg every 4 days, vs Gem alone): did not reach statistical significance
levels of Skp2 in tumors (Skp2; 50 μg/kg i.p., vs non-treatment control, IHC): reduced
levels of Skp2 in tumors, combination with gemcitabine (Skp2; PAO 50 μg/kg plus gemcitabine 50 mg/kg, vs single reagent treatments): did not further reduce the expression of Skp2
As concentration in livers relative to hearts [2]: twice
arsenic (As) in brain [2]: no detectable As
arsenic (As) in heart [2]: significant As detected
arsenic (As) in kidney [2]: no detectable As
arsenic (As) in liver [2]: significant As detected
IC50 (MiaPaCa-2 cells; amiloride 25 μM): 1500 nM
IC50 (MiaPaCa-2 cells; no amiloride): 1500 nM
